# Potato spindle tuber viroid, loop 6: variant abundance in plants

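Three N. benthamiana plants were inoculated with the whole mutant pool. Progeny were sequenced from the inoculated region (day 5), the margin of the inoculated leaf (day 10) and systemic leaves (day 12).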

The pool varies loop 6 of the PSTVd intermediate strain in the pattern UNNNCGNNNG; wild type is UGACCGCGAG (upper and lower strand joined, each 5' to 3', the first 5 letters being the upper strand, closing pairs included).

Numbers give reads per thousand; 0 = not seen among the reads, higher = more abundant.
Each site shows the three plants.
"Pool" is the share in the plasmid pool used as inoculum, on the same scale.
The inoculated region was read from the minus strand, the other sites from the plus strand.

sequence | pool | inoculated region | leaf margin | systemic leaves
GGACCGUGAG | 0.0261 | 0.591 / 0.539 / 0.387 | 0.0552 / 0.151 / 0.0696 | 0 / 0 / 0
UAACCGGUGG | 0.196 | 0.0521 / 0.0359 / 0.111 | 0 / 0 / 0.0232 | 0 / 0 / 0
UAACCGUUUG | 0.314 | 0.104 / 0.0180 / 0.148 | 0.0276 / 0 / 0.0696 | 0 / 0 / 0
UAAGCGCCUG | 0.288 | 0.0869 / 0.0898 / 0.0553 | 0 / 0 / 0.0464 | 0 / 0 / 0
UAAUCGCAGG | 0.261 | 0.174 / 0.0719 / 0.129 | 0.0276 / 0 / 0 | 0 / 0 / 0
UACACGACGG | 0.222 | 0.0695 / 0.0359 / 0.0184 | 0.0276 / 0 / 0 | 0 / 0 / 0
UACACGUACG | 0.105 | 0.608 / 0.557 / 0.498 | 0.110 / 0.101 / 0.116 | 0 / 0 / 0
UACACGUAUG | 0.222 | 0.104 / 0.0898 / 0.0553 | 0.276 / 0 / 0.0464 | 0 / 0 / 0
UACGCGGUGG | 0.183 | 0.122 / 0.0359 / 0.129 | 0 / 0 / 0 | 0 / 0 / 0
UACGCGUUCG | 0.196 | 0.122 / 0.108 / 0.0922 | 0.0552 / 0 / 0 | 0 / 0 / 0
UACUCGAUGG | 0.301 | 0.104 / 0.0539 / 0.0184 | 0 / 0 / 0 | 0 / 0 / 0
UACUCGAUUG | 0.235 | 0.0869 / 0.0180 / 0.0738 | 0 / 0 / 0 | 0 / 0 / 0
UAGACGAGAG | 0.248 | 0.226 / 0.144 / 0.129 | 0.0276 / 0 / 0 | 0 / 0 / 0
UAGCCGGGAG | 0.301 | 0.139 / 0.0898 / 0.0369 | 0.0552 / 0.0757 / 0 | 0 / 0 / 0
UAGGCGACAG | 0.144 | 0.209 / 0.0898 / 0.148 | 0 / 0 / 0 | 0 / 0 / 0
UAUCCGAAUG | 0.392 | 0.156 / 0.198 / 0.0738 | 0.0276 / 0 / 0 | 0 / 0 / 0
UAUCCGCAGG | 0.144 | 0.0521 / 0.108 / 0.111 | 0 / 0 / 0 | 0 / 0 / 0
UAUCCGGUGG | 0.261 | 0.139 / 0.144 / 0.0922 | 0 / 0 / 0 | 0 / 0 / 0
UCAGCGGGCG | 0.157 | 0.712 / 0.719 / 0.535 | 0 / 0.126 / 0.116 | 0 / 0 / 0
UCAGCGUGAG | 0.209 | 0.0695 / 0.0898 / 0.0553 | 0 / 0 / 0 | 0 / 0 / 0
UCAGCGUUUG | 0.418 | 0.0695 / 0.0539 / 0.148 | 0 / 0 / 0 | 0 / 0 / 0
UCCACGGACC | 0.0131 | 0 / 0 / 0 | 0 / 0 / 0 | 0 / 0 / 0
UCCACGUGAG | 0.222 | 0.191 / 0.108 / 0.0922 | 0 / 0 / 0.0232 | 0 / 0 / 0
UCCUCGAUGG | 0.170 | 0.0521 / 0.126 / 0.0738 | 0 / 0 / 0 | 0 / 0 / 0
UCGCCGAUUG | 0.327 | 0.0869 / 0.108 / 0.0738 | 0 / 0 / 0 | 0 / 0 / 0
UCGCCGCACG | 0.248 | 0.0521 / 0.108 / 0.0738 | 0 / 0 / 0 | 0 / 0 / 0
UCGUCGUCAG | 0.261 | 0.0869 / 0.0898 / 0.0553 | 0 / 0 / 0.0232 | 0 / 0 / 0
UCUCCGGCGG | 0.248 | 0.0521 / 0.108 / 0.0553 | 0.0276 / 0 / 0 | 0 / 0 / 0
UCUUCGAUGG | 0.314 | 0.122 / 0.108 / 0.129 | 0 / 0.252 / 0.0232 | 0 / 0 / 0
UGAACGGAUG | 0.261 | 0.573 / 0.952 / 0.535 | 0.0828 / 0.126 / 0.116 | 0 / 0 / 0
UGACCGUAGG | 0.327 | 0.261 / 0.323 / 0.148 | 0.580 / 0.858 / 0 | 0.0539 / 0.101 / 0.123
UGAGCGGCAG | 0.118 | 0.712 / 0.754 / 0.498 | 0.0276 / 0.0504 / 0.0928 | 0 / 0.0606 / 0.0410
UGAGCGUAUG | 0.458 | 0.0869 / 0.0898 / 0.148 | 0.497 / 0 / 0 | 0 / 0.0202 / 0
UGAGCGUGUG | 0.170 | 0.174 / 0.0719 / 0.0184 | 0 / 0 / 0 | 0 / 0 / 0
UGAUCGUCUG | 0.261 | 0.0869 / 0.0719 / 0.0738 | 0 / 0.0252 / 0 | 0 / 0 / 0.0205
UGCGCGACUG | 0.196 | 0.139 / 0.108 / 0.0738 | 0 / 0 / 0.0232 | 0 / 0 / 0
UGCUCGCCCG | 0.288 | 0.122 / 0.0539 / 0.0553 | 0.0276 / 0 / 0 | 0 / 0 / 0
UGGACGGUCG | 0.275 | 0.0521 / 0.0539 / 0.0922 | 0 / 0 / 0 | 0 / 0 / 0
UGGACGUCGG | 0.196 | 0.122 / 0.126 / 0.0922 | 0 / 0 / 0.0232 | 0 / 0 / 0
UGGGCGAUUG | 0.196 | 0.104 / 0.126 / 0.111 | 0 / 0 / 0.0232 | 0 / 0 / 0
UGUACCAACG | 0.0131 | 0 / 0 / 0 | 0 / 0 / 0 | 0 / 0 / 0
UGUACGUCCG | 0.222 | 0.0521 / 0.108 / 0.0553 | 0 / 0 / 0 | 0 / 0 / 0
UGUUCGCACG | 0.196 | 0.156 / 0.0359 / 0.0738 | 0 / 0 / 0 | 0 / 0 / 0.0205
UUACCGUAUG | 0.157 | 0.139 / 0.198 / 0.240 | 0.138 / 0 / 0.0464 | 0 / 0 / 0
UUAUCGCGGG | 0.235 | 0.174 / 0.108 / 0.0738 | 0.0552 / 0 / 0 | 0 / 0 / 0
UUCACGGCUG | 0.314 | 0.104 / 0.108 / 0.148 | 0 / 0 / 0 | 0 / 0 / 0
UUCCCGCAGG | 0.157 | 0.0521 / 0.162 / 0.0922 | 0 / 0 / 0 | 0 / 0 / 0
UUCCCGUAUG | 0.301 | 0.104 / 0.0719 / 0.0922 | 0.248 / 0 / 0 | 0 / 0 / 0
UUCCCGUCUG | 0.314 | 0.104 / 0.0898 / 0.0738 | 0 / 0 / 0 | 0 / 0 / 0
UUCGCGCUGG | 0.157 | 0.104 / 0.0719 / 0.0369 | 0 / 0 / 0 | 0 / 0 / 0
UUCUCGGUUG | 0.235 | 0.0695 / 0.0539 / 0.148 | 0 / 0 / 0 | 0 / 0.0202 / 0
UUGACGACGG | 0.275 | 0.0869 / 0.0180 / 0.0738 | 0 / 0 / 0.0464 | 0 / 0 / 0
UUGACGCUCG | 0.248 | 0.104 / 0.144 / 0.0553 | 0 / 0 / 0 | 0 / 0 / 0
UUGCCGCACG | 0.288 | 0.0521 / 0.0898 / 0.0553 | 0 / 0 / 0.0696 | 0 / 0 / 0
UUGCCGCAGG | 0.261 | 0.0695 / 0.108 / 0.0738 | 0.0276 / 0 / 0 | 0 / 0 / 0
UUGUCGGAUG | 0.301 | 0.139 / 0.0719 / 0.0738 | 0.0276 / 0 / 0 | 0 / 0 / 0
UUUACGGGGG | 0.0784 | 0.0695 / 0.126 / 0.0553 | 0.0276 / 0 / 0.0232 | 0 / 0 / 0
UUUCCUACUA | 0.0131 | 0 / 0 / 0 | 0 / 0 / 0 | 0 / 0 / 0

Excerpt, the final 4 entries:

{"sequence": "UUGCCGCAGG", "pool": "0.261", "inoculated region": "0.0695 / 0.108 / 0.0738", "leaf margin": "0.0276 / 0 / 0", "systemic leaves": "0 / 0 / 0"}
{"sequence": "UUGUCGGAUG", "pool": "0.301", "inoculated region": "0.139 / 0.0719 / 0.0738", "leaf margin": "0.0276 / 0 / 0", "systemic leaves": "0 / 0 / 0"}
{"sequence": "UUUACGGGGG", "pool": "0.0784", "inoculated region": "0.0695 / 0.126 / 0.0553", "leaf margin": "0.0276 / 0 / 0.0232", "systemic leaves": "0 / 0 / 0"}
{"sequence": "UUUCCUACUA", "pool": "0.0131", "inoculated region": "0 / 0 / 0", "leaf margin": "0 / 0 / 0", "systemic leaves": "0 / 0 / 0"}

Sequences that differ at fixed positions probably stem from PCR or sequencing errors, and defective variants can be carried along by functional ones.
For reference, wild type rose from 20.7 per thousand in the pool to 195, 198, 203 (inoculated region), 629, 591, 734 (leaf margin) and 942, 870, 868 (systemic leaves).
With 36,220-57,551 reads a sample, very low values are single reads.

The measurements come from Wu et al. 2024 (doi:10.1371/journal.ppat.1012142).